Reference: PubChem BioAssay AID1259414 (Drosophila RNAi Screening Center, 2018)

Assay: 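Host factors increasing or decreasing Wolbachia levels in cultured fly cells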 (primary screen)
System: Drosophila JW18 cells infected with Wolbachia
Knock-down reagent: long dsRNA against Drosophila genes, 0.25 µg dsRNA per well of a 384-well plate
Time to read-out: 5 days
Treatment: cells persistently infected with Wolbachia before knock-down; no added drug
Measurement: 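Automated imaging of bacterial rRNA staining divided by host cell count, reported as plate-normalised robust z-score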
Scale: Wolbachia per cell robust z: higher = more Wolbachia per host cell than the plate typical
Rule for the call: 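Active if absolute robust z reaches 1.5 in two or more of three replicates, leaving out multi- or no-target dsRNAs, genes unexpressed in JW18 and A1 wells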
In all, the deposit lists about 24,000 reagents; this is a random part of those that have a named target and a result. Of all reagents, about 1,210 (5%) got an active call. 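Inactive calls also include excluded dsRNAs with several or no targets, genes unexpressed in JW18, and well A1, regardless of score.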

target gene	DRSC id	Wolbachia per cell robust z, rep 1	Wolbachia per cell robust z, rep 2	Wolbachia per cell robust z, rep 3	Outcome
BomS3 (Bomanin Short 3)	DRSC21458	-0.622	0.678	-0.182	inactive
BomS3 (Bomanin Short 3)	DRSC28620	-0.654	0.377	1.05	inactive
Nup58 (Nucleoporin 58kD)	DRSC16235	-0.279	-0.272	0.481	inactive
Nup58 (Nucleoporin 58kD)	DRSC27863	-0.152	0.677	0.33	inactive
Grip163	DRSC10538	0.597	-0.129	-2.85	inactive
Grip163	DRSC26469	0.0163	-1.99	-0.87	inactive
CG14545	DRSC14889	-3.63	-1.4	0.481	inactive
CG14545	DRSC27728	0.366	1.15	0.578	inactive
CG33640	DRSC38916	-0.0899	-0.943	-0.228	inactive
GILT3 (Gamma-interferon-inducible lysosomal thiol reductase 3)	DRSC14672	-2.66	-2.29	0.248	inactive
b6	DRSC18740	0.281	0.53	0.812	inactive
b6	DRSC24064	1.02	0.459	1.39	inactive
CG18011	DRSC06697	0.938	0.602	-2.06	inactive
CG18011	DRSC06706	-0.278	0.669	0.452	inactive
parvin	DRSC19468	-1.5	-1.66	-3.84	active
parvin	DRSC28956	0.194	-0.344	1.17	inactive
CG10958	DRSC17768	-0.206	-1.61	-0.021	inactive
CG10958	DRSC29583	-1.08	-0.447	0.214	inactive
Tps1 (Trehalose-6-phosphate synthase 1)	DRSC00269	-1.68	0.486	-0.762	inactive
Tps1 (Trehalose-6-phosphate synthase 1)	DRSC27331	-1.06	-0.411	1.64	inactive
spab (space blanket)	DRSC07112	-0.993	-4.51	-0.27	inactive
Pka-C3 (Protein kinase, cAMP-dependent, catalytic subunit 3)	DRSC09402	-1.86	-0.89	-4.81	inactive
Pka-C3 (Protein kinase, cAMP-dependent, catalytic subunit 3)	DRSC11254	0.707	-0.677	0.38	inactive
Pka-C3 (Protein kinase, cAMP-dependent, catalytic subunit 3)	DRSC25050	-0.194	0.829	-0.169	inactive
RpL17 (Ribosomal protein L17)	DRSC18293	5.52	3.32	2.83	active
RpL17 (Ribosomal protein L17)	DRSC29971	3.62	1.94	4.26	active
Achl (Achilles)	DRSC06665	0.41	1.09	0.643	inactive
Achl (Achilles)	DRSC29366	-1.78	-0.114	0.0434	inactive
emc (extra macrochaetae)	DRSC23238	0.462	1.27	1.32	inactive
emc (extra macrochaetae)	DRSC28439	-0.0799	-0.45	0.444	inactive
Pex11ab (Peroxin 11a/b)	DRSC07145	-2.78	-2.18	-1.6	active
ave (aveugle)	DRSC05502	-0.032	-1.65	-0.285	inactive
ave (aveugle)	DRSC28562	-0.264	-1.27	-2.59	inactive
Cwc25	DRSC26038	0.978	0.686	-0.312	inactive
east (enhanced adult sensory threshold)	DRSC18770	0.868	1.13	-0.662	inactive
east (enhanced adult sensory threshold)	DRSC23626	0.978	-0.662	0.523	inactive
CG13074	DRSC09957	-1.21	0.368	0.281	inactive
betaTub97EF (beta-Tubulin at 97EF)	DRSC15666	0.489	0.324	-4.63	inactive
betaTub97EF (beta-Tubulin at 97EF)	DRSC15667	0.78	-3.61	0.531	inactive
betaTub97EF (beta-Tubulin at 97EF)	DRSC15668	-0.321	0.418	-0.199	inactive
tor (torso)	DRSC07707	-0.899	0.133	0.783	inactive
CG33947	DRSC37775	0.413	-0.588	0.192	inactive
CG33947	DRSC39123	-0.32	-3.37	-1.05	inactive
tld (tolloid)	DRSC17084	-3.65	-0.675	-0.382	inactive
CG6044	DRSC04522	-2.3	-0.0296	0.516	inactive
CG11373	DRSC12170	-1.93	0.181	-1.47	inactive
CG1850	DRSC06762	-1.21	0.321	-1.25	inactive
syd (sunday driver)	DRSC10963	0.524	0.0851	1.39	inactive
syd (sunday driver)	DRSC24418	0.589	-0.881	-0.31	inactive
CG7706	DRSC16295	-0.295	-0.164	0.516	inactive
CG7706	DRSC26375	-0.505	0.0716	-11.3	inactive
tos (tosca)	DRSC03624	-1.2	0.452	-0.388	inactive
IFT57 (Intraflagellar transport 57)	DRSC00720	0.179	-0.339	0.168	inactive
CG14852	DRSC14976	0.874	-0.34	0.83	inactive
CG14852	DRSC23844	2.72	-0.0234	1.21	inactive
ana (anachronism)	DRSC07579	1.08	0.694	-0.0135	inactive
ana (anachronism)	DRSC24236	0.983	-0.547	1.49	inactive
ana (anachronism)	DRSC38967	-0.377	0.481	-0.431	inactive
CG14490	DRSC06461	-2.27	0.734	-1.77	inactive
CG14490	DRSC27641	-0.0858	-2.19	-0.0828	inactive
CG15262	DRSC01975	1.01	0.873	0.252	inactive
Lasp	DRSC10379	0.13	-0.198	-0.943	inactive
Lasp	DRSC23555	-4.01	0.394	-0.36	inactive
CG13685	DRSC10043	-1.83	-1.12	-5.12	active
CG13685	DRSC30064	0.308	0.128	0.81	inactive
ImpE2 (Ecdysone-inducible gene E2)	DRSC08665	1.01	-0.241	0.197	inactive
ImpE2 (Ecdysone-inducible gene E2)	DRSC28588	-0.378	0.0577	1.46	inactive
CG14110	DRSC10113	-0.495	0.688	-0.114	inactive

Looked up above:
Under “Wolbachia per cell robust z, rep 1”, CG13074 [DRSC09957] reads -1.21
Under “Wolbachia per cell robust z, rep 3”, east (enhanced adult sensory threshold) [DRSC18770] shows -0.662
For “Wolbachia per cell robust z, rep 3”, BomS3 (Bomanin Short 3) [DRSC28620] is entered as 1.05
Result of Pka-C3 (Protein kinase, cAMP-dependent, catalytic subunit 3) [DRSC09402] under “Wolbachia per cell robust z, rep 2”: -0.89
Value for parvin [DRSC28956] under “Wolbachia per cell robust z, rep 2”: -0.344
